A mixed list of measured activities; the numbers were collected in NIAID ChemDB.

Shared fields: whole-cell or culture tests; species: Mycobacterium tuberculosis

MIC50, MIC90 and the like: level of inhibition, or share of isolates inhibited. MIC bound comes from a single tested concentration. An empty or dashed field is not shown. ECn: concentration that inhibits the pathogen or its effect by n%. Two numbers with a dash give a range or band. Percent inhibition refers to the dose given; in toxicity tests it is the harm to the cells. Lines come from different laboratories, so protocols vary.

smiles	strain	mutations	cells	read by	measure	tested at	value
COC(=O)C1C(O)C(C)C(OC(C)=O)C(C)/C=C\C=C(/C)C(=O)Nc2c(C)c(OC(C)=O)c3c(c2O)C(=O)C(C)=C2OCOC(=C23)/C(C)=C/C(C)(O)C(O)C(C)C1O	ETA-R				MIC		>12.5 µg/mL
CN[C@@H]1[C@H](O[C@H]2[C@H](O[C@H]3[C@H](O)[C@@H](O)[C@H](N=C(N)N)[C@@H](O)[C@@H]3N=C(N)N)O[C@@H](C)[C@]2(O)C=O)O[C@@H](CO)[C@H](O)[C@H]1O	H37Rv	Streptomycin-resistant		resazurin / fluorescence	MIC90		>2 µg/mL
O=C(NN1C(=O)CSC1c1ccccc1F)c1ccncc1	14PI				MIC		>5 µg/mL
O=S(=O)(NC1CCN(Cc2ccncc2)CC1)c1ccc(-n2cccn2)cc1					MIC		1.1 µM
O=c1c2cc(O)c(O)cc2oc2cc(O)c([C@@H]3O[C@H](CO)[C@@H](O)[C@H](O)[C@H]3O)c(O)c12	H37Rv			BACTEC	inhibition	12.5 µg/mL	0%
NC[C@H]1O[C@H](O[C@H]2[C@H](O)[C@@H](O[C@H]3O[C@H](CO)[C@@H](O)[C@H](N)[C@H]3O)[C@H](N)C[C@@H]2N)[C@H](O)[C@@H](O)[C@@H]1O	92-0492 MDR (INH RIF-resistant)				MIC		2 µg/mL
CO[C@H]1CCC[C@H]2C1=C(C(=O)O)N1C(=O)[C@H]([C@@H](C)O)[C@@H]21	H37Rv		THP-1	luminescence	MIC90		5.57 µM
CC(C)CC(NC(=O)OC(C)(C)C)C(=O)CNC(=O)CCC(=O)O	H37Rv			resazurin	MIC bound		>6.25 µg/mL
CO/N=C1/CCCCc2ccc(OC)c(c2)Oc2cc(ccc2OC)CC1	H37Rv			broth dilution	MIC		>200 µg/mL
O=c1oc2ccccc2cc1-c1cn2nc(C(F)(F)F)sc2n1	H37Rv				MIC		40 µg/mL
CCCN1C(=O)CS/C1=N\NC(=O)Cc1csc2nc(-c3ccc(Br)cc3)cn12	H37Rv				MIC		>6.25 µg/mL
Cl.Cl.O=C(Nc1ccc(C2=NCCN2)cc1)c1cccc(NC(=S)Nc2ccc(C3=NCCN3)cc2)c1	H37Rv			BACTEC	inhibition	12.5 µg/mL	90%
Cc1ccnc(NS(=O)(=O)c2ccc(N3C(=O)CC(=O)N(c4ccc(C(=O)O)c(O)c4)C3=S)cc2)n1	H37Rv			broth dilution	MIC90		>12.5 µg/mL
O=C(Cc1csc2nc(-c3ccc(Br)cc3)cn12)N/N=C1\SCC(=O)N1c1ccccc1	H37Rv				inhibition	6.25 µg/mL	2%
O=C1NC(NNC(=O)c2ccncc2)=N/C1=C\c1cccc(Cl)c1	Capreomycin-resistant				MIC		≤0.39 µg/mL
O=c1[nH]c2ccc([N+](=O)[O-])cc2[nH]1	H37Rv			resazurin	inhibition	6.25 µg/mL	-17%
O=C1NC(=Nc2ccc(Cl)cc2Cl)N/C1=C\c1ccc(Cl)cc1Cl	H37Rv		VERO		EC50		<12.5 µg/mL
C[N+](C)(C)CCCOC1=Nc2ccccc2O/C1=C\c1ccccc1	H37Rv			BACTEC	MIC bound		>12.5 µg/mL
CC(C)N=c1cc2n(-c3ccc(Cl)cc3)c3ccccc3nc-2cc1Nc1ccc(Cl)cc1	90-0201 (drug-susceptible)				MIC		0.2 µg/mL
OCCN1CCN(CCO)CC1	H37Rv			BACTEC	MIC		≥12.8 µg/mL
CO[C@H]1/C=C/O[C@@]2(C)Oc3c(C)c(O)c4c(O)c(c(/C=N/N5CCN(C)CC5)c(O)c4c3C2=O)NC(=O)/C(C)=C\C=C\[C@H](C)[C@H](O)[C@@H](C)[C@@H](O)[C@@H](C)[C@H](OC(C)=O)[C@@H]1C	H37Ra			resazurin	MIC		0.1 µg/mL
COc1ccc2cc1Oc1cc(ccc1OC)CCC(NC1CCCCC1)CCCC2	H37Rv			broth dilution	MIC		50 µg/mL
CN(C)CCCN1C(=O)C2CCC(C)(C1=O)C2(C)C	H37Rv			BACTEC	inhibition	12.5 µg/mL	26%
CO[C@H]1CCC[C@H]2C1=C(C(=O)OC(C)OC(=O)OC1CCCCC1)N1C(=O)[C@H]([C@@H](C)O)[C@@H]21	H37Rv			resazurin	MIC		10.6 µM
CCCCCCOc1ccc2cc1Oc1cc(ccc1OC)CCCCC(=O)CC2	H37Rv			broth dilution	MIC		>200 µg/mL
COc1cc(/C=N/NC(=O)c2ccccc2-c2nc3ccccc3[nH]2)ccc1O	H37Rv				EC50		<0.031 µg/mL
COc1ccc2cc1Oc1cc(ccc1O)CCC(=O)CCCC2	H37Rv			broth dilution	MIC		200 µg/mL
C=C1C(=O)O[C@H]2/C=C(/C)[C@H](OC(C)=O)C[C@@H](O)/C(C)=C\[C@H](OC(=O)[C@@]3(C)O[C@H]3C)[C@H]12	H37Rv			BACTEC	MIC		≥12.8 µg/mL
O=C1NC(NNC(=O)c2ccncc2)=N/C1=C\c1ccc(Cl)cc1	H37Rv				MBC		>100 µg/mL
O=C(N/N=C/c1ccccc1)c1ccccc1-c1nc2ccccc2[nH]1	H37Rv				inhibition	0.031 µg/mL	32%
COCC1OC(OC2(COC)OC(COC)C(OC)C2OC)C(OC)C(OC)C1OC	H37Rv			BACTEC	inhibition	12.5 µg/mL	-21%
O=C(N/N=C/c1ccc(F)cc1)c1ccncc1	H37Rv				MIC		>5 µg/mL
O=C1c2ccccc2-c2nc3ccccc3n21	H37Rv			resazurin	inhibition	6.25 µg/mL	12%
COc1ccc(-c2cn3nc(C(F)(F)F)sc3n2)cc1	H37Rv				inhibition	6.25 µg/mL	31%
Cc1cc(-n2cccn2)ccc1S(=O)(=O)NC1CCN(Cc2ccncc2)CC1	Clinical isolate				MIC		1.6–6.3 µM
CC[C@@H](CO)NCCN[C@@H](CC)CO	H37Rv				MIC		0.5 µg/mL
O=C(NN1C(=O)CSC1c1ccc(F)cc1)c1ccncc1	H37Rv				MIC		>5 µg/mL
CC(C)[C@@H](C)[C@@H](O)[C@@H](O)[C@@H](C)[C@H]1CC[C@H]2[C@@H]3COC(=O)[C@H]4C[C@H](O)[C@H](O)C[C@]4(C)[C@H]3CC[C@]12C	H37Rv			BACTEC	MIC bound		>12.5 µg/mL
NC[C@H]1O[C@H](O[C@H]2[C@H](O)[C@@H](O[C@H]3O[C@H](CO)[C@@H](O)[C@H](N)[C@H]3O)[C@H](N)C[C@@H]2N)[C@H](O)[C@@H](O)[C@@H]1O	H37Rv	Isoniazid-resistant		resazurin / fluorescence	MIC90		0.95 µg/mL
NCC[C@H](O)C(=O)N[C@@H]1C[C@H](N)[C@@H](O[C@H]2O[C@H](CN)[C@@H](O)[C@H](O)[C@H]2O)[C@H](O)[C@H]1O[C@H]1O[C@H](CO)[C@@H](O)[C@H](N)[C@H]1O	90-0216 (drug-susceptible)				MIC		0.5 µg/mL
COCOc1ccc(/C=C/C(=O)CCCCc2ccc(OC)c(O)c2)cc1Br	H37Rv			broth dilution	MIC		>200 µg/mL
CC(C)=CCC(OC(=O)C=C(C)C)c1cc(O)c2c(c1O)C(=O)C=CC2=O	H37Rv			BACTEC	inhibition	12.8 µg/mL	75%
CN(C)/C=N/S(=O)(=O)c1nn2c(/C=N/N=C(N)N)c(-c3ccc(Cl)cc3)nc2s1	H37Rv				inhibition	6.25 µg/mL	58%
Cc1ccnc(NS(=O)(=O)c2ccc(NC(=S)Nc3ccc(C(=O)O)c(O)c3)cc2)n1	H37Rv			broth dilution	MIC90		>12.5 µg/mL
O=C(N/N=C/c1ccc(Cl)cc1)c1ccccc1-c1nc2ccccc2[nH]1	H37Rv				EC50		>0.031 µg/mL
CCCCCCCCOc1ccc2cc1Oc1cc(ccc1OC)CCCCC(=O)CC2	H37Rv			broth dilution	MIC		>200 µg/mL
O=C(NN1C(=O)C(Cl)C1c1ccco1)c1ccccc1-c1nc2ccccc2[nH]1	H37Rv				inhibition	0.031 µg/mL	68%
O=C(O)c1ccc(N2C(=O)C(C(=O)C(F)(F)F)C(=O)N(c3ccc(S(=O)(=O)Nc4ncccn4)cc3)C2=S)cc1O	H37Rv			broth dilution	MIC90		<12.5 µg/mL
COc1cccc2c1C(=O)c1c(O)c3c(c(O)c1C2=O)C[C@](O)(C(=O)CN1CCN(C)CC1)C[C@H]3OC1CC(N)C(O)C(C)O1.Cl	H37Rv			BACTEC	MIC bound		>12.5 µg/mL
CO[C@H]1/C=C/O[C@@]2(C)Oc3c(C)c(O)c4c(O)c(c(/C=N/N5CCN(C)CC5)c(O)c4c3C2=O)NC(=O)/C(C)=C\C=C\[C@H](C)[C@H](O)[C@@H](C)[C@@H](O)[C@@H](C)[C@H](OC(C)=O)[C@@H]1C	DprE1				MIC		0.01 µM
CN(C)c1ccc(C2C(Cl)C(=O)N2NC(=O)c2ccccc2-c2nc3ccccc3[nH]2)cc1	H37Rv				inhibition	0.031 µg/mL	7%
CC(=O)NC[C@H]1CN(c2ccc(N3CCSCC3)c(F)c2)C(=O)O1	ss18b			resazurin	MIC		0.4 µg/mL
CN1C(=O)CS/C1=N\NC(=O)Cc1csc2nc(-c3ccc(Br)cc3)cn12	H37Rv				MIC		>6.25 µg/mL
O=[N+]([O-])c1ccc(-c2cn3nc(C(F)(F)F)sc3n2)cc1	H37Rv				inhibition	6.25 µg/mL	41%
CC1COC2(CCN(c3nc(=O)c4cc(C(F)(F)F)cc([N+](=O)[O-])c4s3)CC2)O1	NTB1				MIC		10 µg/mL
CNC(=S)NNC(=O)Cc1csc2nc(-c3ccc(Br)cc3)cn12	H37Rv				MIC		>6.25 µg/mL
O=C1NC(NNC(=O)c2ccncc2)=N/C1=C\c1ccccc1Cl	H37Rv		VERO	resazurin	EC50		<12.5 µg/mL
c1ccc(-c2c(CN3CCN(c4ccccc4)CC3)c3ccccn3c2CN2CCN(c3ccccc3)CC2)cc1	H37Rv			resazurin	inhibition	6.25 µg/mL	-5%
O=C(NN1C(=O)C(Cl)C1c1ccccc1Cl)c1ccccc1-c1nc2ccccc2[nH]1	H37Rv				EC50		>0.031 µg/mL
C[C@H](O)[C@H]1C(=O)N2C(C(=O)O)=C(S[C@@H]3CN[C@H](C(=O)Nc4cccc(C(=O)O)c4)C3)[C@H](C)[C@H]12	H37Rv		THP-1	luminescence	MIC50		29.56 µM
C=CC1CC(NC(=O)OC)C(=O)O1	H37Rv			BACTEC	MIC bound		>12.5 µg/mL
C[C@H]1COC2(CCN(c3nc(=O)c4cc(C(F)(F)F)cc([N+](=O)[O-])c4s3)CC2)O1	InhA OE				MIC		0.003–0.006 µM
NC(=O)c1cnccn1	T494				MIC		>2048 µg/mL
Cc1c(N2C(=O)CC(=O)N(c3ccc(C(=O)O)c(O)c3)C2=S)c(=O)n(-c2ccccc2)n1C	H37Rv			broth dilution	MIC90		>12.5 µg/mL
C[C@H](O)[C@H]1C(=O)N2C(C(=O)O)=C(S[C@@H]3CN[C@H](C(=O)N(C)C)C3)[C@H](C)[C@H]12	H37Rv			resazurin	MIC		31.7 µM
O=C(NN1C(=O)C(Cl)C1c1ccc(Cl)cc1Cl)c1ccccc1-c1nc2ccccc2[nH]1	H37Rv				inhibition	0.031 µg/mL	97%
C[C@@H]1CN(c2c(F)c(N)c3c(=O)c(C(=O)O)cn(C4CC4)c3c2F)C[C@H](C)N1	90-0241 (drug-susceptible)				MIC		0.1 µg/mL
Cc1cccc2c1N=C(c1ccccc1)C2CN1CCC(NS(C)(=O)=O)C1	Clinical isolate				MIC		3.3–12.5 µM
O=C1c2ccccc2-n2c1nc1ccccc1c2=O	H37Rv			BACTEC	inhibition	12.5 µg/mL	99%
CC[C@H]1OC(=O)[C@H](C)[C@@H](O[C@H]2C[C@@](C)(OC)[C@@H](O)[C@H](C)O2)[C@H](C)[C@@H](O[C@@H]2O[C@H](C)C[C@H](N(C)C)[C@H]2O)[C@](C)(OC)C[C@@H](C)C(=O)[C@H](C)[C@@H](O)[C@]1(C)O	90-0201 (drug-susceptible)				MIC		5 µg/mL
C/C=C(C)\C=N\NC(=S)N/N=C/C(C)=C\C	H37Rv			resazurin	MIC bound		>6.25 µg/mL
C=CCNC(=S)NNC(=O)Cc1csc2nc(-c3ccc(Br)cc3)cn12	H37Rv				inhibition	6.25 µg/mL	2%
O=S(=O)(O)c1cccc(/C(=N/Nc2ccccn2)c2ccccn2)c1	H37Rv			BACTEC	inhibition	12.5 µg/mL	-6%
CCCc1c2c([nH]c(=O)c1C)C(=O)c1[nH]c(=O)c(C)c(CCC)c1C2=O	H37Rv	Rifampicin-resistant		resazurin / fluorescence	MIC90		0.27 µg/mL
C=CCO/N=C/c1cc(NC(=S)c2ccoc2C)ccc1Cl	H37Rv			resazurin	MIC		12.5 µg/mL
O=C(O)c1ccc(Nc2nnc(-c3ccncc3)s2)cc1O	H37Rv			resazurin	inhibition	12.5 µg/mL	90%

Repeating the final 11 entries:

smiles	strain	mutations	cells	read by	measure	tested at	value
O=C(NN1C(=O)C(Cl)C1c1ccc(Cl)cc1Cl)c1ccccc1-c1nc2ccccc2[nH]1	H37Rv				inhibition	0.031 µg/mL	97%
C[C@@H]1CN(c2c(F)c(N)c3c(=O)c(C(=O)O)cn(C4CC4)c3c2F)C[C@H](C)N1	90-0241 (drug-susceptible)				MIC		0.1 µg/mL
Cc1cccc2c1N=C(c1ccccc1)C2CN1CCC(NS(C)(=O)=O)C1	Clinical isolate				MIC		3.3–12.5 µM
O=C1c2ccccc2-n2c1nc1ccccc1c2=O	H37Rv			BACTEC	inhibition	12.5 µg/mL	99%
CC[C@H]1OC(=O)[C@H](C)[C@@H](O[C@H]2C[C@@](C)(OC)[C@@H](O)[C@H](C)O2)[C@H](C)[C@@H](O[C@@H]2O[C@H](C)C[C@H](N(C)C)[C@H]2O)[C@](C)(OC)C[C@@H](C)C(=O)[C@H](C)[C@@H](O)[C@]1(C)O	90-0201 (drug-susceptible)				MIC		5 µg/mL
C/C=C(C)\C=N\NC(=S)N/N=C/C(C)=C\C	H37Rv			resazurin	MIC bound		>6.25 µg/mL
C=CCNC(=S)NNC(=O)Cc1csc2nc(-c3ccc(Br)cc3)cn12	H37Rv				inhibition	6.25 µg/mL	2%
O=S(=O)(O)c1cccc(/C(=N/Nc2ccccn2)c2ccccn2)c1	H37Rv			BACTEC	inhibition	12.5 µg/mL	-6%
CCCc1c2c([nH]c(=O)c1C)C(=O)c1[nH]c(=O)c(C)c(CCC)c1C2=O	H37Rv	Rifampicin-resistant		resazurin / fluorescence	MIC90		0.27 µg/mL
C=CCO/N=C/c1cc(NC(=S)c2ccoc2C)ccc1Cl	H37Rv			resazurin	MIC		12.5 µg/mL
O=C(O)c1ccc(Nc2nnc(-c3ccncc3)s2)cc1O	H37Rv			resazurin	inhibition	12.5 µg/mL	90%